A mixed list of measured activities; the numbers were collected in NIAID ChemDB.

All rows: growth or infection tests; species: Herpes simplex virus 1

Blank or dashed fields: not listed here.

| structure | endpoint | method | cells | strain or isolate | value |
|---|---|---|---|---|---|
| CNc1nc(N)nc2ncn([C@@H]3O[C@H](CO)[C@@H](O)[C@H]3O)c12 | EC50 | cytopathic effect | VERO | HF | 320 µg/mL |
| CCCc1cn([C@@H]2O[C@H](COP(=O)(O)O)[C@@H](O)[C@H]2O)c(=O)nc1N | EC50 | - | - | KOS | >400 µg/mL |
| Cc1c(NC(=O)C2CCCC2)ccc2nc(NC(C)(C)C(=O)N(C)CCc3ccccn3)oc(=O)c12 | EC90 | plaque count | VERO | - | >12.5 µM |
| CC(=O)OC[C@H]1O[C@@H](n2cc(-c3cc(-c4ccc(C(C)C)cc4)no3)c(=O)[nH]c2=O)CC[C@@H]1O | EC50 | - | - | - | 0.08 µg/mL |
| O=c1[nH]c(=O)n([C@H]2C[C@H](O)[C@@H](CO)O2)cc1I | MIC | - | - | - | 3.2 µg/mL |
| Nc1nc2c(ncn2C/C=C\CO)c(=O)[nH]1 | EC50 | plaque count | HEL | C42 | 1.6 µM |
| CC[C@@H](C(C)C)[C@@H](O)[C@H](O)[C@@H](C)[C@H]1CC[C@H]2[C@@H]3CC(=O)[C@@]4(O)C[C@@H](Br)CC[C@]4(C)[C@H]3CC[C@]12C | EC50 | plaque count | VERO | F | 17.7 µM |
| Nc1nc(N)c2nnn([C@H]3CC[C@H](O)[C@H]3CO)c2n1 | EC50 | cytopathic effect | PRK | 377 | 2.6 µg/mL |
| Cc1cn([C@@H]2O[C@H](CO)[C@](O)(C(F)(F)F)[C@H]2O)c(=O)[nH]c1=O | EC50 | cytopathic effect | E6SM | KOS | 300 µg/mL |
| CCc1nc2c3c(cn([C@@H]4O[C@H](CO)[C@@H](O)[C@H]4O)c3n1)C(N)=NN2C | EC50 | ELISA | BSC-1 | KOS | >100 µM |
| Cc1c(NC(=O)OC(C)(C)C)ccc2nc(N(CCc3ccccc3)C(=O)NCc3ccccn3)oc(=O)c12 | EC90 | plaque count | VERO | - | 5.9 µM |
| C=Cc1cn([C@@H]2O[C@H](CO)[C@@H](O)[C@@H]2O)c(=O)[nH]c1=O | MIC | - | - | - | 0.32 µg/mL |
| NC1=NC2C(C=CN2CC(CO)CCO)C(=O)N1 | EC50 | cytopathic effect | VERO | KOS | 5.3 µg/mL |
| O=c1ccn([C@@H]2O[C@H](CO)[C@](O)(C(F)(F)F)[C@H]2O)c(=O)[nH]1 | EC50 | cytopathic effect | E6SM | KOS | 200 µg/mL |
| Nc1nc2c(ncn2[C@@H]2O[C@H](COP(=O)(O)CC(=O)O)[C@@H](O)[C@H]2O)c(=O)[nH]1 | EC50 | plaque count | VERO | HFEM | >2000 µM |
| CCC(CC)C(=O)Nc1ccc2nc(NC(C)(C)C(=O)N(C)CCc3ccccn3)oc(=O)c2c1C | EC90 | plaque count | VERO | - | 12.5 µM |
| Nc1nc2c(ncn2C[C@@H](CF)OCP(=O)(O)O)c(=O)[nH]1 | EC50 | cytopathic effect | E6SM | KOS F McIntyre | 165 µM |
| O=c1[nH]c(=O)n([C@H]2C[C@H](O)[C@@H](CO)O2)cc1CN1CCCC1 | EC50 | cytopathic effect | HSF | KOS | >200 µg/mL |
| [N-]=[N+]=NC(CBr)c1cc([C@H]2C[C@H](O)[C@@H](CO)O2)c(F)cc1F | EC50 | cytopathic effect | E6SM | KOS | >400 µg/mL |
| Cc1nc2c3c(cn([C@@H]4O[C@H](CO)[C@@H](O)[C@H]4O)c3n1)C(N)=NN2C | EC50 | ELISA | BSC-1 | KOS | >100 µM |
| N=c1ncn(Cc2ccc(Cl)cc2Cl)c2nc[nH]c12 | EC50 | plaque count | BSC-1 | - | >25 µg/mL |
| COc1ccc2sc3c(c2c1)NCCNC3=O | EC50 | - | - | - | 1.13 µM |
| N=c1ncn(Cc2cccc([N+](=O)[O-])c2)c2nc[nH]c12 | EC50 | plaque count | BSC-1 | - | >50 µg/mL |
| Nc1ccn([C@@H]2C=C(CO)[C@@H](O)[C@H]2O)c(=O)n1 | EC50 | cytopathic effect | PRK | B2006 (TK-) | 0.1 µg/mL |
| Nc1nc(N)c2ncn(C[C@@H](CO)OCP(=O)(O)O)c2n1 | EC50 | cytopathic effect | E6SM | KOS F McIntyre | 0.22 µM |
| Nc1ncnc2c1ncn2COC1COP(=O)(O)OC1 | EC50 | plaque count | VERO | F | 60 µM |
| CN1C=CCC(C(=O)O[C@H]2C[C@H](n3cc(I)c(=O)[nH]c3=O)O[C@@H]2CO)=C1 | EC50 | cytopathic effect | HFF | - | 0.23 µM |
| Cc1cc(=O)c2ccc(N(C)C)cc2[nH]1 | EC50 | plaque count | KB | - | 19 µg/mL |
| Nc1nc2c(ncn2C[C@H](CO)OCP(=O)(O)O)c(=O)[nH]1 | EC50 | cytopathic effect | E6SM | KOS F McIntyre | 0.1 µM |
| Nc1nc(N)c2c(ncn2[C@@H]2O[C@H](CO)[C@@H](O)[C@@H]2O)n1 | EC50 | cytopathic effect | VERO | HF | 205 µg/mL |
| CC[C@@H](C(C)C)[C@@H](O)[C@H](O)[C@@H](C)[C@H]1CC[C@H]2[C@@H]3CC(=O)[C@H]4C[C@@H](OC(C)=O)CC[C@]4(C)[C@H]3CC[C@]12C | EC50 | plaque count | VERO | F | 22.4 µM |
| CC(=O)Nc1ccc2c(C)cc(Cl)nc2c1 | EC50 | plaque count | KB | - | 4 µg/mL |
| O=c1[nH]c(=O)n([C@H]2C[C@H](O)[C@@H](CO)O2)cc1I | EC50 | cytopathic effect | PRK | KOS | 0.2 µg/mL |
| Cc1ccc(Cn2cnc(=N)c3[nH]cnc32)cc1 | EC50 | plaque count | BSC-1 | - | >50 µg/mL |
| O=[N+]([O-])c1ccccc1S(=O)(=O)n1c(CCc2ccccn2)nc2ccccc21 | EC50 | plaque count | - | - | <5 µg/mL |
| CCCCCCc1cn([C@@H]2O[C@H](COP(=O)(O)O)[C@@H](O)[C@H]2O)c(=O)nc1N | EC50 | - | - | KOS | >400 µg/mL |
| CN1C=CCC(C(=O)O[C@H]2C[C@H](n3cc(/C=C/I)c(=O)[nH]c3=O)O[C@@H]2CO)=C1 | EC50 | cytopathic effect | HFF | - | 0.014 µM |
| C=C1[C@H](CO)[C@@H](O)C[C@@H]1n1cnc2c(=O)[nH]c(N)nc21 | EC50 | plaque count | WI-38 | - | 2.8 µM |
| Nc1ccn([C@@H]2C[C@H](CO)[C@@H](O)[C@@H]2O)c(=O)n1 | EC50 | cytopathic effect | VERO | HF | 93 µg/mL |
| CCCCCc1cn([C@@H]2O[C@H](COP(=O)(O)O)[C@@H](O)[C@H]2O)c(=O)nc1N | EC50 | - | - | F | >400 µg/mL |
| [N-]=[N+]=NCc1cn([C@H]2C[C@H](O)[C@@H](CO)O2)c(=O)[nH]c1=O | EC50 | cytopathic effect | PRK | VEW257 | 2 µg/mL |
| Cc1c(NC(=O)OC(C)(C)C)ccc2nc(N3CCCC[C@H]3C(=O)NCCc3ccccn3)oc(=O)c12 | EC90 | plaque count | VERO | - | >12.5 µM |
| Nc1nc2c(ncn2CCC(CO)CO)c(=O)[nH]1 | EC50 | - | MRC-5 | - | 0.25 µM |
| CC[C@@H](N(C)C(=O)[C@@H](NC(=O)[C@@H](CC(=O)[C@@H](NC(=O)[C@H](C(C)C)N(C)C(=O)[C@H](C)[C@@H](C)C1CCCCC1)C(C)(C)C)CC(=O)C(C)(C)C)C1(C(=O)O)CCCC1)C(C)(C)C | EC50 | ELISA | BHK-21 | - | 0.2 µM |
| CCCCCCCCc1cn([C@@H]2O[C@H](COP(=O)(O)O)[C@@H](O)[C@H]2O)c(=O)nc1N | EC50 | - | - | McIntyre | >400 µg/mL |
| Nc1ncc2ncn(C[C@@H](CF)OCP(=O)(O)O)c2n1 | EC50 | cytopathic effect | E6SM | KOS F McIntyre | >600 µM |
| CC(C)c1cn([C@@H]2OC3COP(=O)(O)OC3[C@H]2O)c(=O)nc1N | EC50 | - | - | F | >400 µg/mL |
| CCCCCCCCCCCCCCCCOCCCOP(=O)(O)OCC(CO)OCn1cnc2c(=O)[nH]c(N)nc21 | EC50 | - | MRC-5 | - | 0.023 µM |
| CNc1cc(C)nc2cc(N(C)C)ccc12 | EC50 | plaque count | KB | - | 2 µg/mL |
| Nc1nc2c(ncn2CC(CO)CCO)c(=O)[nH]1 | EC50 | plaque count | Primary mouse cells | C42 | 0.1 µM |
| Cc1cn([C@@H]2C[C@H](CO)[C@@H](O)C2)c(=O)[nH]c1=O | EC50 | cytopathic effect | VERO | 377 | 0.8 µg/mL |
| Cc1c(NC(=O)c2ccccc2)ccc2nc(NC(C)(C)C(=O)N(C)CCc3ccccn3)oc(=O)c12 | EC90 | plaque count | VERO | - | >12.5 µM |
| C#Cc1cn([C@H]2C[C@H](O)[C@@H](COP(=O)(O)CC(=O)O)O2)c(=O)[nH]c1=O | EC50 | plaque count | VERO | HFEM | >200 µM |
| CCc1cc([C@H]2C[C@H](O)[C@@H](CO)O2)c(F)cc1F | EC50 | cytopathic effect | E6SM | KOS ACV-R (TK-) | >400 µg/mL |
| CN(C)c1ccc2c(N(C)C)cc(N(C)C)nc2c1 | EC50 | plaque count | KB | - | 4 µg/mL |
| Nc1nc(Cl)c2c(nnn2[C@@H]2O[C@H](CO)[C@@H](O)[C@H]2O)n1 | EC50 | cytopathic effect | VERO | HF | 81 µg/mL |
| COC(=O)C(Cc1c[nH]c2ccccc12)NP(=O)(O)OCC1C/C1=C/n1cnc2c(N)ncnc21 | EC50 | cytopathic effect | HFF | - | >184 µM |
| N=c1ncn(CC2CCCCC2)c2nc[nH]c12 | EC50 | plaque count | BSC-1 | - | >50 µg/mL |
| CC[C@@H](C(C)C)[C@@H](O)[C@H](O)[C@@H](C)[C@H]1CC[C@H]2[C@@H]3CC(=O)[C@@]4(O)C[C@@H](OC(C)=O)CC[C@]4(C)[C@H]3CC[C@]12C | EC50 | plaque count | VERO | F | 57.6 µM |
| Nc1nc(Cl)c2c(ncn2[C@@H]2O[C@H](CO)[C@@H](O)[C@H]2O)n1 | EC50 | cytopathic effect | VERO | HF | 10 µg/mL |
| Cc1cc(N)nc2cc(N)ccc12 | EC50 | plaque count | KB | - | 7 µg/mL |
| CN1N=C(N)c2cn([C@@H]3O[C@H](CO)[C@@H](O)[C@H]3O)c3nc(Cl)nc1c23 | EC50 | ELISA | BSC-1 | KOS | >100 µM |
| Nc1nc2c(ncn2COC(CO)CO)c(=O)[nH]1 | EC50 | cytopathic effect | VERO | K1R | 80.3 µM |
| CC[C@@H](NC(=O)[C@@H](CC(=O)[C@@H](CC(=O)[C@@H](NC(=O)[C@H](C(C)C)N(C)C(=O)[C@H](C)CC1CCCCC1)C(C)(C)C)CC(=O)C(C)(C)C)C1(C(=O)O)CCCC1)C(C)(C)C | EC50 | ELISA | BHK-21/C13 | KOS | 0.43 µM |
| C=Cc1cn([C@H]2C[C@H](OC(=O)C3=CN(C)C=CC3)[C@@H](CO)O2)c(=O)[nH]c1=O | EC50 | cytopathic effect | HFF | - | 0.13 µM |
| O=c1[nH]c(=O)n([C@H]2C[C@H](O)[C@@H](CO)O2)cc1/C=C/Br | MIC | - | - | - | 0.032 µg/mL |
| Nc1nc2c(ncn2/C=C2/CC2(CO)CO)c(=O)[nH]1 | EC50 | plaque count | HFF | E-377 | >380 µM |
| C[C@H](Cn1cnc2c(=O)[nH]c(N)nc21)OCP(=O)(O)O | EC50 | cytopathic effect | E6SM | KOS F McIntyre | 132 µM |
| Nc1nc2c(ncn2CCC(CO)CO)c(=O)[nH]1 | EC50 | cytopathic effect | VERO | K1 | 16.6 µM |
| Cc1c(NC(=O)c2cccc([N+](=O)[O-])c2)ccc2nc(NC(C)(C)C(=O)N(C)CCc3ccccn3)oc(=O)c12 | EC90 | plaque count | VERO | - | >12.5 µM |
| Nc1ncnc2c1ncn2C[C@H](CF)OCP(=O)(O)O | EC50 | cytopathic effect | E6SM | KOS F McIntyre | >1200 µM |

For reference, 6 entries again:

structure | endpoint | method | cells | strain or isolate | value
Nc1nc(Cl)c2c(ncn2[C@@H]2O[C@H](CO)[C@@H](O)[C@H]2O)n1 | EC50 | cytopathic effect | VERO | HF | 10 µg/mL
Cc1c(NC(=O)c2cccc([N+](=O)[O-])c2)ccc2nc(NC(C)(C)C(=O)N(C)CCc3ccccn3)oc(=O)c12 | EC90 | plaque count | VERO | - | >12.5 µM
COc1ccc2sc3c(c2c1)NCCNC3=O | EC50 | - | - | - | 1.13 µM
Nc1nc2c(ncn2CCC(CO)CO)c(=O)[nH]1 | EC50 | cytopathic effect | VERO | K1 | 16.6 µM
CN(C)c1ccc2c(N(C)C)cc(N(C)C)nc2c1 | EC50 | plaque count | KB | - | 4 µg/mL
CNc1cc(C)nc2cc(N(C)C)ccc12 | EC50 | plaque count | KB | - | 2 µg/mL

Lines come from different laboratories, so protocols vary. ECn is the concentration giving n% inhibition of infection, replication or growth.